Data taken from patent US20090029418.

Target: HaeIII methylase (UniProt P20589)
Assay: activity in cells
Details: genomic DNA resistant to StuI; GGm5CC; protein in cells; protein details: pLJhaeIIIM101-1 in E. coli ER1398; only the site is given

“AGGCCT (double strand) [E. coli genomic DNA StuI site]” was tested. Which “activity on this sequence” value did it give?
Its value is “active”.
